{"source": "patent US20240324531A1", "about": "“METHOD TO INCREASE POLLEN FERTILITY” (Keygene N.V., priority 2021, published 2024)", "test_system": "pollen of AC interspecific hybrids from a cross of Brassica oleracea and Brassica rapa", "conditions": "higher concentrations (above 0.5 μM), 10 days", "note": "Where two headings read alike, the source gives them in different places."}
{"smiles": "NC1=NC(=O)C(=Cc2ccc(O)cc2)S1", "note": "[Mirin, 2-Amino-5-[(4-hydroxyphenyl)methylene]-4(5H)-thiazolone]", "values": [{"measurement": "pollen size and viability at higher concentrations (MTT staining)", "result": "larger but non-viable pollen"}, {"measurement": "pollen size and viability at higher concentrations (MTT staining)", "setting": "listed as mirin", "result": "bigger but not viable pollen"}]}
